For two molecules, Ratio CC50/EC50 results are on record in ChEMBL document CHEMBL6087437 (J Med Chem, 2025).

The structures appear in SMILES notation.

The nature of this data set: Selectivity index, ratio of CC50 for human HeLa cells to EC50 for antiviral activity against wildtype Ebolavirus infected in human HeLa cells. In kind it is toxicity, cell-based.

As for `O=C(Nc1ccc(N2CCC3(CCC3)CC2)c(C(F)(F)F)c1)c1ccc(CN2C[C@@H]3C[C@H]2CO3)nc1`, the Ratio CC50/EC50 was found to be 43.

In the case of `O=C(Nc1ccc(N2CCC3(CCC3)CC2)c(C(F)(F)F)c1)c1ccc(CN2C[C@H]3C[C@@H]2CO3)nc1`, the Ratio CC50/EC50 is 26.
